Values quoted from earlier work as cited in PMC1617126.
Several values for one entry are separate records, joined by “and”; a condition that tells them apart may be missing. Identical values can stand only once.

Amino acid sequences for entries named in this document (tags omitted). Residues count along the entry.
UniProt P13423, 30-196: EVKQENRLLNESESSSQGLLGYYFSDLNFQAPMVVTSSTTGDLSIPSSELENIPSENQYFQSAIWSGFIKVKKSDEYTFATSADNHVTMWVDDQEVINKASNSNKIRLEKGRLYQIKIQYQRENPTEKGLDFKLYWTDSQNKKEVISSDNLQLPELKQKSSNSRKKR
UniProt Q9H6X2, 38-220: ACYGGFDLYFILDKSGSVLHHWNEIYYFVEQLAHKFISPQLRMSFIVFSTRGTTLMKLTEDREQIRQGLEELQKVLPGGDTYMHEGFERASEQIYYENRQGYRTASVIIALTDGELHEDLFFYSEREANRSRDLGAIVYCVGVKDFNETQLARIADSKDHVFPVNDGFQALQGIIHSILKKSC

Biological target: protective antigen (PA) (Bacillus anthracis) (UniProt P13423)

In the case of ANTXR1 I domain (from UniProt Q9H6X2), the Kd is listed as 0.13 µM and 1.1 µM.
